For test [1], the target named is Human recombinant PTP1B (Homo sapiens, UniProt P18031). The test is described as follows: Inhibition of tri-phosphorylated insulin receptor dodecaphosphopeptide dephosphorylation by hPTP1B. Format: biochemical.
The test system of test [2] is rat hepatic microsomal PTPases. The test is described as follows: Inhibition of tri-phosphorylated insulin receptor dodecaphosphopeptide dephosphorylation by rat hepatic PTPases. The following applies: PTPase activity; compounds at 50 μM.

Amino acid sequences for entries named in this document (tags omitted). A change or cut given only in a name is not applied to a line headed by its entry.
UniProt P18031: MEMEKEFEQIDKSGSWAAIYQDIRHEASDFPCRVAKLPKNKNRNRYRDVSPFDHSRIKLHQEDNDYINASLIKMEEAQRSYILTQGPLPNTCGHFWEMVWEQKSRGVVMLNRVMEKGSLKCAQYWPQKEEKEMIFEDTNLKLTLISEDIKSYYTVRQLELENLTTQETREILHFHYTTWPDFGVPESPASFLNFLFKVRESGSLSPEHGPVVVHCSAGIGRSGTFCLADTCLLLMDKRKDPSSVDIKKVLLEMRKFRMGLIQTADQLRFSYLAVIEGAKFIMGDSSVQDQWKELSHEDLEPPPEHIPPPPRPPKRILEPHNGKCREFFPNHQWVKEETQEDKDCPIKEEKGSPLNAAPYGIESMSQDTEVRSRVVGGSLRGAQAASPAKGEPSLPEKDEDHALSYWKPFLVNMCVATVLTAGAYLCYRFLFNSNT

Experimental findings from patent US6340676B2, “4-aryl-1-oxa-9-thia-cyclopenta (b) fluorenes” (American Home Products Corporation, priority 1998, dated 2002) are described below.

Take Phenylarsine oxide: the concentration for half-maximal inhibition (IC50) (usually the point on the concentration scale where inhibition reaches its midpoint) in test [1] was determined as 39.7 µM. In addition, the “% Change from Control” value in test [2] is −57.06%.
